Anti-infective test results gathered from many reports (values: NIAID ChemDB through PubChem).

Common to all: tests in culture; species: Aspergillus niger; read-out: zone

Zone: diameter of growth inhibition. An empty or dashed field is not shown. Neighbouring rows are from separate reports.

SMILES	strain	tested at	result
COc1ccc(C2OC(c3sc4ccccc4c3Cl)=NN2C(C)=O)cc1	-	5 µg/disc	9 mm
CC(=O)Nc1ccc(F)cc1Sc1ncccc1[N+](=O)[O-]	MTCC 282	100 µg/mL	18 mm
Cc1n[nH]c(=S)n1N=C/C=C/c1c(-c2ccc(F)cc2)c2ccccc2n1C(C)C	-	100 µg/mL	12 mm
OC(Cn1cncn1)(Cn1cncn1)c1ccc(F)cc1F	-	50 µg/mL	99 mm
CC(=O)c1cc(C2OC(c3sc4ccccc4c3Cl)=NN2C(C)=O)ccc1O	-	5 µg/disc	10 mm
C#CCn1c(C(F)(F)F)nc2cc([N+](=O)[O-])ccc21	MTCC 1344	500 µg/mL	600 mm
CC(=O)Nc1ccc(Cl)cc1Sc1ncccc1[N+](=O)[O-]	MTCC 282	100 µg/mL	14 mm
CC(=O)N1N=C(c2sc3ccccc3c2Cl)OC1c1ccc(F)cc1	-	5 µg/disc	11 mm
Cc1nc2ccccc2n(CC(=O)NN2C(=O)CSC2c2ccccc2F)c1=O	-	50 µg/mL	9 mm
COC1=CC(=O)C[C@@H](C)[C@]12Oc1c(Cl)c(OC)cc(OC)c1C2=O	-	12.5 µg/mL	18 mm
O=[N+]([O-])c1cccc(-c2nnc(-c3sc4ccccc4c3Cl)o2)c1	-	5 µg/disc	11 mm
Cc1cc(=O)oc2c(C=Nc3cccc4cccc(N=Cc5c(O)ccc6c(C)cc(=O)oc56)c34)c(O)ccc12	MTCC 1881	100 µg/mL	8 mm
COc1ccc(C2SCC(=O)N2NC(=O)Cn2c(=O)c(C)nc3ccccc32)cc1	-	50 µg/mL	9 mm
COc1cccc(C2OC(c3sc4ccccc4c3Cl)=NN2C(C)=O)c1	-	5 µg/disc	11 mm
O=[N+]([O-])c1ccc2nc(C(F)(F)F)n(CCCCCl)c2c1	MTCC 1344	500 µg/mL	650 mm
CC(=O)N1N=C(c2sc3ccccc3c2Cl)OC1c1ccccc1Cl	-	5 µg/disc	11 mm
O=[N+]([O-])c1ccc2c(c1)nc(C(F)(F)C(F)(F)F)n2CCCCCl	MTCC 1344	500 µg/mL	650 mm
CC(=O)Nc1ccc(Br)cc1Sc1ncccc1[N+](=O)[O-]	MTCC 282	100 µg/mL	16 mm
Cc1nc2ccccc2n(CC(=O)NN2C(=O)CSC2c2ccc([N+](=O)[O-])cc2)c1=O	-	100 µg/mL	23 mm
Clc1ccccc1-c1nnc(-c2sc3ccccc3c2Cl)o1	-	5 µg/disc	11 mm
Cc1nc2ccccc2n(CC(=O)NN2C(=O)CSC2c2ccc(N(C)C)cc2)c1=O	-	100 µg/mL	17 mm
Fc1ccc2c(c1)Sc1cccnc1N2CCCCCCN1c2ccc(F)cc2Sc2cccnc21	MTCC 282	100 µg/mL	10 mm
CC(=O)c1ccc(-c2nnc(-c3sc4ccccc4c3Cl)o2)cc1	-	5 µg/disc	10 mm
O=[N+]([O-])c1ccc2nc(C(F)(F)F)n(CCCCl)c2c1	MTCC 1344	500 µg/mL	350 mm
Clc1ccc(COC(Cn2ccnc2)c2ccc(Cl)cc2Cl)c(Cl)c1	MTCC 282	100 µg/mL	18 mm

For reference, 2 entries again:

| SMILES | strain | tested at | result |
|---|---|---|---|
| O=[N+]([O-])c1ccc2c(c1)nc(C(F)(F)C(F)(F)F)n2CCCCCl | MTCC 1344 | 500 µg/mL | 650 mm |
| Fc1ccc2c(c1)Sc1cccnc1N2CCCCCCN1c2ccc(F)cc2Sc2cccnc21 | MTCC 282 | 100 µg/mL | 10 mm |